Compound potency records, mixed from different reports. Data source: NIAID ChemDB in PubChem.

Shared fields: whole-cell or culture tests; species: Candida albicans; measure: MIC

Blank or dashed fields: not listed here. Neighbouring rows are from separate reports.

Nc1c(/C=N/NC(=O)c2ccncc2)cccc1CN1CCNCC1 ; strain: MTCC 8184 ; result: 3.12 µg/mL
Cc1c(N2CCC[C@H]2CO)c(F)cn2c(=O)c(C(=O)O)cc(C3CC3)c12 ; strain: CCH442 ; result: >100 µg/mL
S=C([S][Sn]([Cl])([Cl])[S]C(=S)N1CCCC1)N1CCCC1 ; strain: ATCC 18804 ; result: 50 µg/mL
Cc1ccc(N2NOC(=O)C2S(=O)(=O)Nc2ccc(-n3c(-c4ccc([N+](=O)[O-])cc4)nc4ccccc4c3=O)cc2)cc1 ; strain: MTCC 227 ; method: broth dilution ; result: 250 µg/mL
CCN(CC)c1cc(N(CC)CC)c2ccc(C)nc2c1O ; result: 10 µg/mL
Cc1ccc(N2NOC(=O)C2S(=O)(=O)Nc2nc(-c3ccc(F)cc3F)cs2)cc1 ; strain: MTCC 227 ; method: broth dilution ; result: 250 µg/mL
Nc1c(/C=N/NC(=O)c2ccncc2)cccc1CN1CCCC1 ; strain: MTCC 8184 ; result: 12.5 µg/mL
CCCC1c2cc(OCc3ccccc3)c(OCc3ccccc3)cc2CCN1Cc1ccccc1 ; strain: IFO1061 ; result: >500 µg/mL
O=C(O)c1cc(O)c(O)c(O)c1 ; strain: ATCC 10231 ; method: broth dilution ; result: 200 µg/mL
CN(C/C=C/C#CC(C)(C)C)Cc1cccc2ccccc12 ; result: 8 µg/mL
O=C1c2cc(CO)cc(O)c2C(=O)c2cc(O)cc(O)c21 ; strain: MTCC 227 ; method: broth dilution ; result: >250 µg/mL
CC(=O)N1CCN(c2ccc(OC[C@H]3CO[C@](Cn4ccnc4)(c4ccc(Cl)cc4Cl)O3)cc2)CC1 ; result: 0.5 µg/mL
CCCCCCCCCCCCN(C)C ; result: 109 µg/mL
COc1ccc2nc(NS(=O)(=O)C3C(=O)ONN3c3ccc(C)cc3)sc2c1 ; strain: MTCC 227 ; method: broth dilution ; result: 500 µg/mL
CC[C@H](N)[C@@H]1CCN(c2c(F)cn3c(=O)c(C(=O)O)cc(C4CC4)c3c2C)C1.Cl ; strain: CCH442 ; result: 12.5 µg/mL
O=c1c(-c2ccc(O)cc2)coc2cc(OCCCCn3cnc4ccccc43)cc(O)c12 ; method: MTT ; result: >50 µg/mL
COc1ccc(Cc2cc3cc(OC)c(OC)cc3c[nH+]2)cc1OC ; strain: IFO1061 ; result: >500 µg/mL
O=c1c(-c2ccc(O)cc2)coc2cc(OCCn3cnc4ccccc43)cc(O)c12 ; method: MTT ; result: >50 µg/mL
CC(=O)N[C@H]1[C@@H](O[C@@H]2O[C@H](C[C@@H](O)[C@H]3O[C@@H](n4ccc(=O)[nH]c4=O)[C@H](O)[C@@H]3O)[C@H](O)[C@H](O)[C@H]2NC(=O)/C=C/CC(C)C)O[C@H](CO)[C@@H](O)[C@@H]1O ; result: 0.25 µg/mL
C[C@@H]1O[C@@H](Oc2c(-c3ccc(O)c(O)c3)oc3cc(O)cc(O)c3c2=O)[C@H](O)[C@H](O)[C@H]1O ; strain: ATCC 10231 ; method: broth dilution ; result: 100 µg/mL
CC1CCN(CCCCCSc2ccc(/C=C/C(=O)c3ccccc3)cc2)CC1 ; strain: PCM 1409 PZH ; result: 184 µM
COc1c(O)cc2oc(-c3ccccc3)c(OC)c(=O)c2c1O ; result: 500 µg/mL
S=C([S][Sn]([S]C(=S)N1CCCC1)([c]1ccccc1)[c]1ccccc1)N1CCCC1 ; strain: Drug-resistant isolate ; result: 25 µg/mL
O=C(/C=C/c1ccc(SCCCCCN2CCCCC2)cc1)c1ccccc1 ; strain: PCM 1409 PZH ; result: 127 µM
CN(C/C=C/c1ccccc1)Cc1cccc2ccccc12 ; strain: Clinical isolate delta 63 ; result: 100 µg/mL
C[C@@]12CCC[C@]3(C)C4=CC(=O)OC(O)[C@]45O[C@@H]5C(OC1=O)[C@@H]23 ; strain: 1463D ; result: >64 µg/mL
CCN(CC)C(=S)[S][Sn]([Cl])([Cl])[S]C(=S)N(CC)CC ; strain: ATCC 18804 ; result: 30 µg/mL
CN(C/C=C/C#CC(C)(C)C)Cc1cccc2ccccc12 ; strain: YAG237 (genotype CNB1-1/CNB1) ; result: >12.5 µg/mL
CCCCC[C@@H](O)[C@H]1C(=O)O[C@H](C)[C@@H](O)/C=C/C=C/C=C/C=C/C=C(\C)[C@@H](O)C[C@H](O)C[C@H](O)C[C@H](O)C[C@H](O)C[C@H](O)C[C@@H]1O ; strain: IPA ; result: 1.2 µg/mL
O=c1c(O)c(-c2ccc(O)c(O)c2)oc2cc(O)cc(O)c12 ; strain: ATCC 10231 ; method: broth dilution ; result: 100 µg/mL
Cc1c(N2CCOCC2CN)c(F)cn2c(=O)c(C(=O)O)cc(C3CC3)c12.Cl ; strain: CCH442 ; result: >100 µg/mL
COc1cc(C[C@@]2(O)CO[C@H](c3ccc(O)c(OC)c3)[C@H]2CO[C@@H]2O[C@@H](CO)[C@@H](O)[C@H](O)[C@H]2O)ccc1O ; strain: ATCC 90028 ; method: MTT ; result: 6 µg/mL
Cc1ccc(N2NOC(=O)C2S(=O)(=O)Nc2nc(-c3c(F)cc(Cl)cc3Cl)cs2)cc1 ; strain: MTCC 227 ; method: broth dilution ; result: 250 µg/mL
Nc1c(/C=N/NC(=O)c2ccncc2)cccc1CN1CCOCC1 ; strain: MTCC 8184 ; result: 1.56 µg/mL
CCCN(CCC)CCOc1cc(O)c2c(=O)c(-c3ccc(O)cc3)coc2c1 ; method: MTT ; result: >50 µg/mL
CCCCCc1nccc2cc(OCCC)c(OCCC)cc12 ; strain: IFO1061 ; result: >500 µg/mL
CCCN(CCC)Cc1cccc(/C=N/NC(=O)c2ccncc2)c1N ; strain: MTCC 8184 ; result: 50 µg/mL
CCc1c(N2CCC(N)C2)c(F)cn2c(=O)c(C(=O)O)cc(C3CC3)c12 ; strain: CCH442 ; result: 50 µg/mL
C[C@@H]1O[C@@H](OC2[C@H](O[C@H]3CC[C@@]4(C)[C@@H](CC[C@]5(C)[C@@H]4CC=C4[C@@H]6CC(C)(C)CC[C@]6(C(=O)O[C@@H]6O[C@H](COC7O[C@H](CO)[C@@H](O[C@@H]8O[C@@H](C)[C@H](O)[C@@H](O)[C@H]8O)[C@H](O)[C@H]7O)[C@@H](O)[C@H](O)[C@H]6O)CC[C@]45C)[C@]3(C)CO)OC[C@H](O)[C@@H]2O)[C@H](O)[C@H](O)[C@H]1O ; strain: KCTC 1940 ; result: >200 µg/mL
CC1=C(N2CC3CCCCN3C2)C(F)=CN2C(=O)C(C(=O)O)=CC(C3CC3)C12 ; strain: CCH442 ; result: >100 µg/mL
CC1OC(OC2C(O[C@H]3CC[C@@]4(C)C(CC[C@]5(C)C4CC=C4C6CC(C)(C)CC[C@]6(C(=O)O)CC[C@]45C)[C@]3(C)CO)OCC(O)C2O)C(O)C(OC2OCC(O)C(O)C2O)C1O ; strain: KCTC 1940 ; result: 25 µg/mL
OC(Cn1cncn1)(Cn1cncn1)c1ccc(F)cc1F ; strain: YL 318 ; method: broth dilution ; result: 512 µg/mL
CN1CCN(CCOc2cc(O)c3c(=O)c(-c4ccc(O)cc4)coc3c2)CC1 ; method: MTT ; result: >50 µg/mL
Cc1ccc2c(N3CCCCC3)cc(N3CCCCC3)c(O)c2n1 ; result: 7.1 µg/mL
C[C@@H](c1nc(-c2ccc(C#N)cc2)cs1)[C@](O)(Cn1cnnc1)c1ccc(F)cc1F ; strain: Isogenic isolate 3 MDR1 (25X) ; result: 0.008 µg/mL
C=C[C@]1(C)C=C2c3c[nH]c4cccc(c34)C(C)(C)[C@H]2C[C@H]1O ; result: >100 µM
CCCCCC(=O)O ; result: >1000 µg/mL
COc1c(O)cc2oc(-c3ccccc3)cc(=O)c2c1O ; result: 500 µg/mL
Cc1nccc2cc(O)c(O)cc12 ; strain: IFO1061 ; result: >500 µg/mL
Cc1ccc(N2NOC(=O)C2S(=O)(=O)Nc2ccc(-n3c(-c4ccc(Cl)cc4)nc4ccccc4c3=O)cc2)cc1 ; strain: MTCC 227 ; method: broth dilution ; result: 250 µg/mL
CCCCCCCCCCCC(=O)OCC(O)COC(=O)CCCCCCCCCCC ; result: >1000 µg/mL
Clc1ccc(COC(Cn2ccnc2)c2ccc(Cl)cc2Cl)c(Cl)c1 ; result: 0.25 µg/mL
CCC(C)CC(C)CCCCCCCCC(=O)N[C@H]1C[C@@H](O)[C@H](NCCN)NC(=O)[C@@H]2[C@@H](O)CCN2C(=O)[C@H]([C@H](O)CCN)NC(=O)[C@H]([C@H](O)[C@@H](O)c2ccc(O)cc2)NC(=O)[C@@H]2C[C@@H](O)CN2C(=O)[C@H]([C@@H](C)O)NC1=O ; strain: 1399 ; method: broth dilution ; result: 0.5 µg/mL
CCCCCCCCCC(=O)OCC(O)COC(=O)CCCCCCCCC ; result: >1000 µg/mL
COc1cc(Cc2cnc(N)nc2N)cc(OC)c1OCCCNc1ccc(S(=O)(=O)c2ccc(N)cc2)cc1 ; strain: YEM14 (WT) ; result: >64 µg/mL
Nc1[nH]c(=O)ncc1F ; strain: SC5314 ; method: resazurin ; result: 0.25 µg/mL
CCCCCCCCCCCCCCCC(=O)N[C@H]1C[C@@H](O)[C@@H](O)NC(=O)[C@@H]2[C@@H](O)[C@@H](C)CN2C(=O)[C@H]([C@@H](C)O)NC(=O)[C@H]([C@H](O)[C@@H](O)c2ccc(O)cc2)NC(=O)[C@@H]2C[C@@H](O)CN2C(=O)[C@H]([C@@H](C)O)NC1=O ; result: 0.25 µg/mL
O=c1c(-c2ccc(O)cc2)coc2cc(OCCBr)cc(O)c12 ; method: MTT ; result: >50 µg/mL
Cc1c(N2CCC(N3CCCCC3)CC2)c(F)cn2c(=O)c(C(=O)O)cc(C3CC3)c12 ; strain: CCH442 ; result: >100 µg/mL
CCCCCC[C@H]1C(=O)O[C@H](C)[C@H](NC(=O)c2cccc(NC=O)c2O)C(=O)O[C@@H](C)[C@@H]1OC(=O)CC(C)C ; strain: IFO1061 ; result: 0.1 µg/mL
Cc1ccc(N2NOC(=O)C2S(=O)(=O)Nc2nc(-c3ccc([N+](=O)[O-])cc3)cs2)cc1 ; strain: MTCC 227 ; method: broth dilution ; result: 1000 µg/mL
CCN(CC)C(=S)[S][Sn]([S]C(=S)N(CC)CC)([c]1ccccc1)[c]1ccccc1 ; strain: Drug-resistant isolate ; result: 75 µg/mL
Cc1ccc(N2NOC(=O)C2S(=O)(=O)Nc2nc3cc(F)ccc3s2)cc1 ; strain: MTCC 227 ; method: broth dilution ; result: 500 µg/mL
O=c1c(-c2ccc(O)cc2)coc2cc(OCCN3CCCC3)cc(O)c12 ; method: MTT ; result: >50 µg/mL
CCN(CC)C(=S)[S][Sn]([S]C(=S)N(CC)CC)([S]C(=S)N(CC)CC)[c]1ccccc1 ; strain: Drug-resistant isolate ; result: 75 µg/mL
CCCC/C=C\CCCCCCCC(=O)O ; result: 220 µg/mL
CC[C@H]1OC(=O)C=C2[C@@]13O[C@@H]3C1OC(=O)[C@@]3(C)CCC[C@@]2(C)[C@@H]13 ; strain: 1463D ; result: 16 µg/mL
COc1cc(OC)cc(N2C3CCC2CC(c2cnc(N)nc2N)C3)c1 ; strain: YEM15 (CDR1CDR2UP) ; result: >64 µg/mL
CCCCCCCCCC(=O)O ; result: 290 µg/mL
CCCc1nccc2cc(O)c(O)cc12 ; strain: IFO1061 ; result: >500 µg/mL
Cc1c(N2CCC(N3CCCCC3)CC2)c(F)cn2c(=O)c(C(=O)O)cc(C3CC3)c12.O=C(O)C(F)(F)F ; strain: CCH442 ; result: >100 µg/mL
CCCC1=[N+](Cc2ccccc2)CCc2cc(OCc3ccccc3)c(OCc3ccccc3)cc21 ; strain: IFO1061 ; result: 3.9 µg/mL
COCOCC1CCCN(c2c(F)cn3c(=O)c(C(=O)O)cc(C4CC4)c3c2C)C1.Cl ; strain: CCH442 ; result: >100 µg/mL
CCC(C)CC(C)CCCCCCCCC(=O)N[C@H]1C[C@@H](O)[C@H](NCCN)NC(=O)[C@@H]2[C@@H](O)CCN2C(=O)[C@H]([C@H](O)CCN)NC(=O)[C@H]([C@H](O)[C@@H](O)c2ccc(O)cc2)NC(=O)[C@@H]2C[C@@H](O)CN2C(=O)[C@H]([C@@H](C)O)NC1=O ; strain: 36S ; method: resazurin ; result: 20 µg/mL
N[C@@H]1CN(c2cc3c(C4CC4)cc(C(=O)O)c(=O)n3cc2F)CC12CC2 ; strain: CCH442 ; result: >100 µg/mL
Clc1ccc(C(Cn2ccnc2)OCc2csc3c(Cl)cccc23)c(Cl)c1 ; strain: 81 strains ; result: 1.14 µg/mL

For reference, 9 entries again:

compound	strain	method	result
CCCCCc1nccc2cc(OCCC)c(OCCC)cc12	IFO1061	-	>500 µg/mL
Cc1c(N2CCC(N3CCCCC3)CC2)c(F)cn2c(=O)c(C(=O)O)cc(C3CC3)c12	CCH442	-	>100 µg/mL
C=C[C@]1(C)C=C2c3c[nH]c4cccc(c34)C(C)(C)[C@H]2C[C@H]1O	-	-	>100 µM
CCCCCC(=O)O	-	-	>1000 µg/mL
O=c1c(-c2ccc(O)cc2)coc2cc(OCCN3CCCC3)cc(O)c12	-	MTT	>50 µg/mL
CC(=O)N1CCN(c2ccc(OC[C@H]3CO[C@](Cn4ccnc4)(c4ccc(Cl)cc4Cl)O3)cc2)CC1	-	-	0.5 µg/mL
Nc1[nH]c(=O)ncc1F	SC5314	resazurin	0.25 µg/mL
CCC(C)CC(C)CCCCCCCCC(=O)N[C@H]1C[C@@H](O)[C@H](NCCN)NC(=O)[C@@H]2[C@@H](O)CCN2C(=O)[C@H]([C@H](O)CCN)NC(=O)[C@H]([C@H](O)[C@@H](O)c2ccc(O)cc2)NC(=O)[C@@H]2C[C@@H](O)CN2C(=O)[C@H]([C@@H](C)O)NC1=O	1399	broth dilution	0.5 µg/mL
COc1ccc2nc(NS(=O)(=O)C3C(=O)ONN3c3ccc(C)cc3)sc2c1	MTCC 227	broth dilution	500 µg/mL